We go through one substance from PMC10213809 (Cell Reports Medicine, 2023).

This test relates to TBK-IRF3 signaling cascade. It counts as cell-based, human. The conditions noted are these: HFF-1.

As for IFN-β, the “phospho-STAT1 (Tyr701) (western blot)” value was “strongly induced” and the “phospho-TBK1 (Ser172) (western blot)” value is recorded as “strongly induced”.
